Source: article PMC5686162, “Non-canonical activation of OmpR drives acid and osmotic stress responses in single bacterial cells” (Nature Communications, 2017)
Construct, isoform or probe ends are uncertain for at least one entry. For some of these results: Weaker means in comparison with the reference protein, sequence or condition of that experiment. Where a protein sequence is shown, tags need not be part of it.

Legend:
OmpR = biological target: T1, OmpR (UniProt P0AA19); test: AFM; details: AFM: OmpR exchanged into 20 mM Tris, 200 mM NaCl at pH 6.1, 6.5, 6.8 or 7.2, recombinant protein, protein details: His (pET15b), probe letters rebuilt from the primers and the genome
T1 sequence (looked up, limits assumed): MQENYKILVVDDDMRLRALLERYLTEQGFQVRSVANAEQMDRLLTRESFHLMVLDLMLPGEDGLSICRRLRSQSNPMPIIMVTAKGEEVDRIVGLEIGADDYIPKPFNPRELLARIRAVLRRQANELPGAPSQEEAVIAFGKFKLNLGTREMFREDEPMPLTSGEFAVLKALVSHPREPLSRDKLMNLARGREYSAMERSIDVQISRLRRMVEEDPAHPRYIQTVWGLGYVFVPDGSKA

OmpR~P = biological target: T2, OmpR~P (UniProt P0AA19); test: AFM; details: acetyl phosphate, level between OmpR at pH 6.8 and 6.1; AFM: OmpR exchanged into 20 mM Tris, 200 mM NaCl at pH 6.1, 6.5, 6.8 or 7.2; recombinant protein; protein details: His (pET15b); probe letters rebuilt from the primers and the genome
T2 sequence (looked up, limits assumed): T1 sequence (looked up, limits assumed)

Sequence	binding result (OmpR; pH 6.5, stimulated by acid pH)	binding result (OmpR; pH 6.1, more binding than pH 6.8)	binding result (OmpR; pH 6.8, discrete specific foci)	binding result (OmpR~P)
AATAGATGTACAAGCGCCATTTTGCTGTACAAATAACCTACAAAAAGCCCAACAAAAATAATTGCAAATAAACAAAGATTGCTGGAAATTATGCGGATGTTAATTATTTGTGAAATAGTTAACAAGCGTTATAGTTTTTCTGTGGTAGCACAGAATAATGAAAAGTGTGTAAAGAAGGGTAAAAAAAACCGAATGCGAGGCATCCGGTTGAAATAGGGGTAAACAGACATTCAGAAATGAATGACGGTAATAAATAAAGTTAATGATGATAGCGGGAGTTATTCTAGTTGCGAGTGAAGGTTTTGTTTTGACATTCAGTGCTGTCAAATACTTAAGAATAAGTTATTGATTTTAACCTTGAATTATTATTGCTTGATGTTAGGTGCTTATTTCGCCATTCCGCAATAATCTTAAAAAGTTCCCTTGCATTTACATTTTGAAACATCTATAGCGATAAATGAAACATCTTAAAAGTTTTAGTATCATATTCGTGTTGGATTATTCTGCATTTTTGGGGAGAATGGACTTGCCGACTGATTAATGAGGGTTAATCAGTATGCAGTGGCATAAAAAAGCAAATAAAGGCATATAACAGAGGGTTAATAACATGAAAGTTAAAGTACTGTCCCTCCTGGTCCCAGCTCTGCTGGTAGCAGGCGCAGCAAACGCTGCTGAAGTTTACAACAAAGACGGCAACAAA (double strand) [ompC promoter E. coli]	binds	–	–	–
TTTGTTGCCGTCTTTATTATAAATTTCAGCCGCATTCGCTGCGCCCGCCACCAGCAGAGCTGGTACCAGGAGGGACAGTACTTTAACTTTCATGTTATTAACCCTCTGTTATATGCCTTTATTGCTTTTTTATGCCACTGCTTACTGGTTAACCCTCATTAACCAGTCGGCAAGTCCATTCTCCGCAAAAATACAGAATAATCCAACACGAATATGATACTAAAACTTTTAAGATGTTACAGTTATCTACATAGATGTTTCAAAATATGAATTTTACGGAACTTTTTTAAAGCAAAAATCAAGTAAAAATAAGCACAAATAGACAAAATATATTCACGAAACTTTTAAAATCAACGGGTTAAATTGATGAAATTCATAGCACTGAATGATAAAACAGAATCTTCATTCGCAACTAAAATAGTGACCGCTATCATCATTAACTTTATTTATTACCGTCATTCACTTCTGAATGTCTGTTTACCCCTATTTCAACCGGATGCTTCGCATTCGGTTTTTTTTACCCTTTTTCAGACACACCCGGCTGATTTATGCTACCTGCCTAAAACTATCACGGTTATTCACTACACTCCCCTGCTCGACCGTTCGTAAGACATTAGCAAATAATTTCTTGATATTTAGTGCTAAACATTTATAAGTAGTCTTTATATTTGTACCGTTCTGCGAAGGTTGTACGCTTTTC (double strand) [ompC promoter S. Typhimurium]	–	binds	binds more weakly	binds
